Measured values from several laboratories, pooled; numbers as filed in NIAID ChemDB.

Common to all: cytotoxicity tests; cells: VERO; endpoint: CC50

CCn: concentration that lowers growth or viability of the cells by n%. Rows are shuffled and stem from different studies. An empty or dashed field is not shown.

{"SMILES": "Cc1c(C(=O)NCc2ccc(Br)cc2)[n+](=O)c2cc(Cl)ccc2n1[O-]", "result": ">40 µg/mL"}
{"SMILES": "CCCOC(=O)C(CCSC[C@H]1O[C@@H](n2ccc3c(N)ncnc32)[C@H](O)[C@@H]1O)NC(C)=O", "result": "40 µg/mL"}
{"SMILES": "O=C(CN1c2c(-c3ccccc3)n[nH]c2-c2ccccc2S1(=O)=O)N/N=C/c1cccc(Br)c1", "result": "12.2 µM"}
{"SMILES": "CCCCOC(=O)C(N)CCSC[C@H]1O[C@@H](n2ccc3c(N)ncnc32)[C@H](O)[C@@H]1O", "result": "400 µg/mL"}
{"SMILES": "Fc1ccc(/C(Cn2ccnc2)=N/OCc2ccc(-c3ccccc3)cc2)cc1", "result": "1.5 µg/mL"}
{"SMILES": "Nc1ncnc2c1ncn2C1OC(CO)C=C1F", "result": ">100 µM"}
{"SMILES": "CCCCCCCCCCCCCC(=O)N[C@H](C)C(=O)N1C[C@@H](O)C[C@H]1C(=O)N[C@@H](CC(C)C)C(=O)N[C@H](C(=O)N[C@@H](CCC(N)=O)C(=O)N[C@@H](CC(C)C)C(=O)OC)C(C)C", "result": "48 µM"}
{"SMILES": "CCCCCCC[n+]1ccc2cc(OC)c(OC)c3c2c1C=CN3", "result": "3.9 µM"}
{"SMILES": "Nc1nc2c(ncn2[C@H]2O[C@@H](CO)C=C2F)c(=O)[nH]1", "result": ">100 µM"}
{"SMILES": "COc1cc2ccnc3c2c(c1OS(=O)(=O)c1ccccc1)N(C)C=C3", "result": "27.3 µM"}
{"SMILES": "CC1(C)C(OC2O[C@H](C(=O)O)[C@@H](O)[C@H](NC3[C@@H](O)[C@H](O)[C@@H](CO)O[C@@H]3O)[C@H]2OC2O[C@H](O)[C@@H](O)[C@H](O)[C@H]2C(=O)O)CC[C@@]2(C)C1CC[C@]1(C)C2C(=O)C=C2C3C[C@@](C)(C(=O)O)CC[C@]3(C)CC[C@]21C", "result": "250 µg/mL"}
{"SMILES": "CCn1nc(CC(=O)N/N=C/c2ccco2)nc1C", "result": "400 µg/mL"}
{"SMILES": "CCCCCCCCCCCN1C=Cc2cc(OC)c(O)c3c2c1cc[n+]3CCCCCCCCCCC", "result": "9.1 µM"}
{"SMILES": "O[C@@H](c1cc(C(F)(F)F)nc2c(C(F)(F)F)cccc12)[C@@H]1CCCCN1Cc1ccncc1", "result": "35 µM"}
{"SMILES": "CCCCCCCCC[n+]1ccc2cc(OC)c(OC)c3c2c1C=CN3", "result": "7.1 µM"}
{"SMILES": "Clc1ccc(/C(Cn2ccnc2)=N/OC/C=C/c2ccccc2)c(Cl)c1", "result": "1.5 µg/mL"}
{"SMILES": "COc1ccc(-n2c(Cc3nc4n(n3)CCCC4)n[nH]c2=S)cc1", "result": ">400 µg/mL"}
{"SMILES": "Oc1c(N=NC(=S)Nc2ccc(Cl)cc2)c2cc(OC(F)(F)F)ccc2n1CN1CCOCC1", "read by": "MTT", "result": "9.713 µg/mL"}
{"SMILES": "COc1ccc(C(=O)N2CCCC2(C#N)c2ccccc2)cc1[N+](=O)[O-]", "read by": "absorbance", "result": ">100 µM"}
{"SMILES": "O=C(NCc1ccc(Cl)cc1)c1c[nH]c2c(F)cccc2c1=O", "result": ">50 µM"}
{"SMILES": "CCCN1C=Cc2nccc3cc(OC)c(OC)c1c23", "result": "74.3 µM"}
{"SMILES": "O=C(CN1c2c(-c3ccccc3)n[nH]c2-c2ccccc2S1(=O)=O)N/N=C/c1ccccc1F", "result": "15.5 µM"}
{"SMILES": "O=c1[nH]cnc2c1ncn2[C@@H]1O[C@@H](CO)C=C1F", "result": ">100 µM"}
{"SMILES": "CCOc1ccc(C2(C#N)CC(=O)N2Cc2ccccc2)cc1", "read by": "absorbance", "result": "6.2 µM"}
{"SMILES": "CN/N=C/c1cc(C(F)(F)F)nc2c(C(F)(F)F)cccc12", "result": ">128 µM"}
{"SMILES": "CC/C=C/C/C=C/C/C=C/CCCCCCCC(=O)NC(C)(C)C(=O)N1C[C@@H](O)C[C@H]1C(=O)N[C@@H](CC(C)C)C(=O)N[C@H](C(=O)N[C@@H](CCC(N)=O)C(=O)N[C@@H](CC(C)C)C(=O)OC)C(C)C", "result": ">42 µM"}
{"SMILES": "CCCCCCCCCCCC(=O)c1c(O)cc(O)c([C@@H]2C[C@H](c3ccc(O)cc3)Oc3cc(O)ccc32)c1O.CCCCCCCCCCCC(=O)c1c(O)cc(O)c([C@@H]2C[C@H](c3ccc(O)cc3)Oc3cc(O)ccc32)c1O", "result": "16.4 µg/mL"}
{"SMILES": "Oc1[nH]c2ccc(OC(F)(F)F)cc2c1N=NC(=S)Nc1ccc(Br)cc1", "read by": "MTT", "result": "5.767 µg/mL"}
{"SMILES": "CC(C)(C)OC(=O)N1CCCC[C@H]1[C@@H](O)c1cc(C(F)(F)F)nc2c(C(F)(F)F)cccc12", "result": "10 µM"}
{"SMILES": "COc1ccc(/C=N/NC(=O)CN2c3c(-c4ccccc4)n[nH]c3-c3ccccc3S2(=O)=O)cc1OC", "result": "46.1 µM"}
{"SMILES": "C(=C\\c1ccccc1)/CCNc1ccccc1N1CCSCC1", "result": "64 µg/mL"}
{"SMILES": "O=C(O)c1ccc(CN2CCCC[C@H]2[C@@H](O)c2cc(C(F)(F)F)nc3c(C(F)(F)F)cccc23)cc1", "result": "98 µM"}
{"SMILES": "O=c1ccn([C@H]2O[C@@H](CO)C=C2F)c(=O)[nH]1", "result": ">100 µM"}
{"SMILES": "CNS(=O)(=O)c1sc(N(C)C(=O)Nc2ccc(-c3ccccc3)cc2)nc1C", "result": "250 µM"}
{"SMILES": "S=c1[nH]nc(Cc2nc3n(n2)CCCCC3)o1", "result": "≥80 µg/mL"}
{"SMILES": "COC(=O)[C@@H](Cc1ccccc1)N1COc2ccc3c(=O)c(-c4ccc5c(c4)OCCO5)c(C)oc3c2C1", "read by": "neutral red", "result": ">50 µM"}
{"SMILES": "O[C@@H](c1cc(C(F)(F)F)nc2c(C(F)(F)F)cccc12)[C@@H]1CCCCN1Cc1ccccc1", "result": "50 µM"}
{"SMILES": "CN[C@@H]1[C@H](O[C@H]2[C@H](O[C@H]3[C@H](O)[C@@H](O)[C@H](N=C(N)N)[C@@H](O)[C@@H]3N=C(N)N)O[C@@H](C)[C@]2(O)C=O)O[C@@H](CO)[C@H](O)[C@H]1O", "result": ">64 µg/mL"}
{"SMILES": "NCC1(c2ccc(OCc3ccccc3)cc2)CCC(=O)N1Cc1ccccc1", "read by": "absorbance", "result": "13.1 µM"}
{"SMILES": "O=C(C/C=C/c1ccccc1)Nc1ccc(N2CCSCC2)cc1", "result": "32 µg/mL"}
{"SMILES": "Nc1nc2c(ncn2COC(CO)CO)c(=O)[nH]1", "result": ">100 µM"}
{"SMILES": "CCCCCCCCCCCCCC(=O)NC(C)(C)C(=O)N1C[C@@H](O)C[C@H]1C(=O)N[C@@H](CC(C)C)C(=O)N[C@H](C(=O)N[C@@H](CCC(N)=O)C(=O)N[C@@H](CC(C)C)C(=O)OC)C(C)C", "result": "20 µM"}
{"SMILES": "CCn1nc(Cc2n[nH]c(=S)o2)nc1C", "result": "≥400 µg/mL"}
{"SMILES": "Nc1ncnc2c([C@@H]3O[C@H](CSCCC(N)C(=O)O)[C@@H](O)[C@H]3O)[nH]nc12", "result": "100 µg/mL"}
{"SMILES": "c1ccc(/C(Cn2ccnc2)=N/OCc2ccc(-c3ccccc3)cc2)cc1", "result": "3 µg/mL"}
{"SMILES": "Cc1nc(CC(=O)NN)nn1C", "result": "400 µg/mL"}
{"SMILES": "Cc1ccc(CNC(=O)c2c(C)n([O-])c3ccccc3[n+]2=O)cc1", "result": ">40 µg/mL"}
{"SMILES": "c1ccc(-c2ccc(CNc3cccc(-n4ccnc4)c3)cc2)cc1", "result": "64 µg/mL"}
{"SMILES": "CC#Cc1cn([C@H]2C[C@H](O)[C@@H](CO)O2)c(=O)[nH]c1=O", "result": ">500 µM"}
{"SMILES": "COc1cc2ccnc3c2c(c1OCCCCCCCCCOc1c(OC)cc2ccnc4c2c1N(C)C=C4)N(C)C=C3", "result": "1.3 µM"}
{"SMILES": "O=c1cc(-c2ccc(-c3ccccc3)cc2)oc2ccccc12", "result": "470 µg/mL"}
{"SMILES": "CCCCCCCCCCCCCC(=O)N[C@@H](C)C(=O)N1C[C@@H](O)C[C@H]1C(=O)N[C@@H](CC(C)C)C(=O)N[C@H](C(=O)N[C@@H](CCC(N)=O)C(=O)N[C@@H](CC(C)C)C(=O)OC)C(C)C", "result": "36 µM"}
{"SMILES": "ONc1cc(C(F)(F)F)nc2c(C(F)(F)F)cccc12", "result": ">128 µM"}
{"SMILES": "O=C(NCc1ccc(Cl)cc1)c1c[nH]c2ccc(C#CCO)cc2c1=O", "result": "48.9 µM"}
{"SMILES": "C=C(C[C@@H]1C(=C)CC[C@@H]2[C@@]3(C)CCC[C@@]12C(=O)OC3)c1ccoc1", "result": ">50 µg/mL"}
{"SMILES": "Cc1ccc(N2C(=O)CCC2(C#N)c2ccc(OCc3ccc(Cl)cc3Cl)cc2)cc1", "read by": "absorbance", "result": "21.8 µM"}
{"SMILES": "c1ccc(-c2ccc(CNc3ccc(N4CCOCC4)cc3)cc2)cc1", "result": "8 µg/mL"}
{"SMILES": "CCc1ccccc1NC(=O)c1c(C)n([O-])c2ccc(Cl)cc2[n+]1=O", "result": ">100 µg/mL"}
{"SMILES": "Cc1nc(Cc2n[nH]c(=S)n2-c2ccccc2)nn1C", "result": "400 µg/mL"}
{"SMILES": "O=C(O[C@@H]1[C@@H](c2c(O)cc(O)c3c2O[C@H](c2cc(O)c(O)c(O)c2)[C@H](OC(=O)c2cc(O)c(O)c(O)c2)C3)c2c(O)cc(O)cc2O[C@@H]1c1cc(O)c(O)c(O)c1)c1cc(O)c(O)c(O)c1", "read by": "XTT", "result": "35.5 µM"}
{"SMILES": "COc1cccc(Cn2cnc3c(-c4ccco4)ncnc32)c1", "result": ">62.5 µg/mL"}
{"SMILES": "COc1cc2cc[n+](C)c3c2c(c1OC)NC=C3", "result": "58.4 µM"}
{"SMILES": "Cc1ccc2[nH]c(O)c(N=NC(=S)Nc3cccc(Br)c3)c2c1", "read by": "MTT", "result": "0.704 µg/mL"}
{"SMILES": "C=CCn1c(=N)n(CC(=O)c2cc(C(C)(C)C)c(O)c(C(C)(C)C)c2)c2ccccc21", "read by": "neutral red", "result": ">50 µM"}
{"SMILES": "Cc1c(C(=O)NCc2ccc(Br)cc2)[n+](=O)c2cc(Cl)c(Cl)cc2n1[O-]", "result": ">40 µg/mL"}
{"SMILES": "O=C(CN1c2c(-c3ccccc3)n[nH]c2-c2ccccc2S1(=O)=O)N/N=C/c1ccc([N+](=O)[O-])cc1", "result": "50 µM"}
{"SMILES": "Nc1nc2c(ncn2[C@@H]2O[C@@H](CO)C=C2F)c(=O)[nH]1", "result": ">100 µM"}
{"SMILES": "Clc1ccc(CNc2ccc(N3CCOCC3)cc2)cc1", "result": "16 µg/mL"}
{"SMILES": "Cc1nc(N(C)C(=O)Nc2ccc(N3CCOCC3)cc2)sc1S(=O)(=O)N(C)C", "result": "262.5 µM"}
{"SMILES": "Clc1ccc(/C(Cn2ccnc2)=N/OCc2ccc(-c3ccccc3)cc2)cc1", "result": "1.5 µg/mL"}
{"SMILES": "COCC(=O)NC(CCSC[C@H]1O[C@@H](n2ccc3c(N)ncnc32)[C@H](O)[C@@H]1O)C(=O)OC(C)C", "result": "400 µg/mL"}
{"SMILES": "O=C(CN1c2c(-c3ccccc3)n[nH]c2-c2ccccc2S1(=O)=O)N/N=C/c1cccc([N+](=O)[O-])c1", "result": "53.1 µM"}
{"SMILES": "Clc1ccc(CNc2ccccc2N2CCSCC2)cc1", "result": "8 µg/mL"}
{"SMILES": "CCc1ccccc1NC(=O)c1c(C)n([O-])c2ccc(C)cc2[n+]1=O", "result": ">100 µg/mL"}
{"SMILES": "Clc1ccc(/C(Cn2ccnc2)=N\\OC/C=C/c2ccccc2)c(Cl)c1", "result": "6 µg/mL"}
{"SMILES": "Cc1ccc2[nH]c(O)c(N=NC(=S)NC3CCCCC3)c2c1", "read by": "MTT", "result": "1.572 µg/mL"}
{"SMILES": "Cc1cn([C@H]2O[C@@H](CO)C=C2F)c(=O)[nH]c1=O", "result": ">100 µM"}
{"SMILES": "CCCCCCCCCCCC(=O)c1c(O)cc(O)c([C@@H]2C[C@@H](c3ccc(O)cc3)Oc3cc(O)ccc32)c1O", "result": "17.7 µg/mL"}
{"SMILES": "O=C(CSC1=N/C(=C/c2ccccc2)C(=O)N1c1ccccc1)Nc1cccc(C(F)(F)F)c1", "read by": "neutral red", "result": ">50 µM"}
{"SMILES": "CC(=O)NC(CCSC[C@H]1O[C@@H](n2ccc3c(N)ncnc32)[C@H](O)[C@@H]1O)C(=O)O", "result": ">400 µg/mL"}
{"SMILES": "COc1cc2ccnc3c2c(c1O)N(C)C=C3", "result": "2.1 µM"}

For reference, 5 entries again:

SMILES	read by	result
Clc1ccc(/C(Cn2ccnc2)=N\OC/C=C/c2ccccc2)c(Cl)c1		6 µg/mL
Nc1nc2c(ncn2[C@@H]2O[C@@H](CO)C=C2F)c(=O)[nH]1		>100 µM
Nc1nc2c(ncn2[C@H]2O[C@@H](CO)C=C2F)c(=O)[nH]1		>100 µM
O=c1ccn([C@H]2O[C@@H](CO)C=C2F)c(=O)[nH]1		>100 µM
CCCCCCCCCCCN1C=Cc2cc(OC)c(O)c3c2c1cc[n+]3CCCCCCCCCCC		9.1 µM